{"source": "paper PMC12091907", "about": "(Gut Microbes, 2025)", "molecular_target": "Toxin B (TcdB) from Clostridioides difficile, native full-length (Clostridioides difficile)", "assay": "ELISA", "settings": "both partners purified", "data": [{"binder": "human CD44 extracellular domain (CD44-ECD, amino acids 21-220), labeled with Fc (Fc fusion) QIDLNITCRFAGVFHVEKNGRYSISRTEAADLCKAFNSTLPTMAQMEKALSIGFETCRYGFIEGHVVIPRIHPNSICAANNTGVYILTSNTSQYDTYCFNASAPPEEDCTSVTDLPNAFDGPITITIVNRDGTRYVQKGEYRTNPEDIYPSNPTDDDVSSGSSSERSSTSGGYIFYTFSTVHPIPDEDSPWITDSTDRIP", "values": [{"measurement": "Kd", "result": "~78", "unit": "nM"}]}]}
